PubChem BioAssay AID1259414 | Drosophila RNAi Screening Center – 2018
The deposit covers about 24,000 reagents; below is an unselected part of those that have a named target and a result. Of all reagents, about 1,210 (5%) were called active. 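Inactive calls also include excluded dsRNAs with several or no targets, genes unexpressed in JW18, and well A1, regardless of score.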 Entries without a mark were called inactive.

- Screen: 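Fly genes that alter Wolbachia amount inside host cells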 (primary screen)
- Cell system: Drosophila JW18 cells infected with Wolbachia
- Knock-down reagent: long dsRNA against Drosophila genes, 0.25 µg dsRNA per well of a 384-well plate
- Timing: 5 days
- Conditions: cells persistently infected with Wolbachia before knock-down; no added drug
- Read-out: 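Imaged fluorescence in situ signal for Wolbachia 23S rRNA per DAPI-counted host cell, given as a robust z-score within each plate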
- Scale: Wolbachia per cell robust z: higher = more Wolbachia per host cell than the plate typical
- Active means: 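Active if absolute robust z reaches 1.5 in two or more of three replicates, leaving out multi- or no-target dsRNAs, genes unexpressed in JW18 and A1 wells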

no.	predicted target	PubChem SID	Wolbachia per cell robust z, rep 1	Wolbachia per cell robust z, rep 2	Wolbachia per cell robust z, rep 3
1	Dpit47 (DNA polymerase interacting tpr containing protein of 47kD)	SID104184777	-0.975	0.654	0.348
2	Dpit47 (DNA polymerase interacting tpr containing protein of 47kD)	SID104207432	0.824	0.485	1.36
3	Drs (Drosomycin)	SID104188449	-4.82	1.17	0.677
4	Drs (Drosomycin)	SID104206396	0.214	0.532	-1.16
5	Drs (Drosomycin)	SID104218276	0.0366	1.27	0.839
6	CG42705	SID104218914	-2.08	0.117	0.665
7	Scp2 (Sarcoplasmic calcium-binding protein 2)	SID104192958	-0.88	0.203	-0.302
8	Scp2 (Sarcoplasmic calcium-binding protein 2)	SID104196646	0.319	-1.14	1.49
9	CG42458	SID104202486	-2.59	-0.125	-0.255
10	CG42458	SID104202618	0.746	0.466	0.419
11	CG42458	SID104205235	0.875	0.514	1.25
12	CG42458	SID104208375	-0.155	-0.398	-5.05
13	ect (ectodermal)	SID104190467	-0.773	-0.985	-2.34
14	ect (ectodermal)	SID104191135	0.327	-2.93	0.269
15	ect (ectodermal)	SID104201848	-0.143	0.755	-0.685
16	ect (ectodermal)	SID104206424	-1.59	-0.676	-1.03
17	Listericin	SID104187126	0.393	-4.31	0.315
18	Listericin	SID104203159	0.833	0.889	1.78
19	CG18599	SID104202478	0.264	0.00974	0.282
20	CG18599	SID104204367	-0.675	-0.639	-1.17
21	CG18599	SID104216645	0.772	0.0319	0.4
22	PGRP-LB (Peptidoglycan recognition protein LB)	SID104194718	-1.81 (active)	-5.53	-0.677
23	Hel25E (Helicase at 25E)	SID104183134	-0.892	-0.727	0.717
24	Hel25E (Helicase at 25E)	SID104206892	-0.302	-0.075	-0.22
25	Obp19b (Odorant-binding protein 19b)	SID104200328	-1.56	-1.73	-3.27
26	Obp19b (Odorant-binding protein 19b)	SID104207488	-0.567	-0.0578	-0.704

No new results follow: an excerpt of the list.
no.	predicted target	PubChem SID	Wolbachia per cell robust z, rep 1	Wolbachia per cell robust z, rep 2	Wolbachia per cell robust z, rep 3
10	CG42458	SID104202618	0.746	0.466	0.419
11	CG42458	SID104205235	0.875	0.514	1.25
12	CG42458	SID104208375	-0.155	-0.398	-5.05
13	ect (ectodermal)	SID104190467	-0.773	-0.985	-2.34
14	ect (ectodermal)	SID104191135	0.327	-2.93	0.269

Next reagents follow:
no.	predicted target	PubChem SID	Wolbachia per cell robust z, rep 1	Wolbachia per cell robust z, rep 2	Wolbachia per cell robust z, rep 3
27	Cyp318a1 (Cytochrome P450 318a1)	SID104199576	0.692	1.06	0.376
28	CG33777	SID104216426	-0.358	1.24	-3.74
29	CG11658	SID104189644	-0.0123	-1.5	-0.968
30	Slu7	SID104194521	1.63 (active)	1.83	2.02
31	Slu7	SID104202805	2.26 (active)	2.89	2.74
32	Obp73a (Odorant-binding protein 73a)	SID104189699	-0.0796	1.1	-9.25
33	PpN58A (Protein phosphatase N at 58A)	SID104184434	0.0506	-1.82	-0.827
34	PpN58A (Protein phosphatase N at 58A)	SID104206787	-0.792	0.376	0.923
35	PpN58A (Protein phosphatase N at 58A)	SID104219088	-1.06	-0.111	0.914
36	Dlc90F (Dynein light chain 90F)	SID104196441	0.0656	-0.945	1.83
37	Tsp29Fa (Tetraspanin 29Fa)	SID104183024	-2.03	0.164	-4.67
38	Tsp29Fa (Tetraspanin 29Fa)	SID104207066	-1.47	-0.571	-1.29
39	CG32192	SID104201428	-2.08	-1.53	-0.00787
40	CG32192	SID104205315	-3.75	0.138	-0.213
41	Wdr37 (WD repeat domain 37)	SID104194292	1.35	0.453	0.528
42	Sec22 (Secretory 22)	SID104207841	-0.351	-0.523	-0.253
43	CG8142	SID104199878	0.633	0.505	0.665
44	CG8142	SID104204917	0.399	-0.0587	-0.634
45	CG13876	SID104188138	-0.0843	0.248	0.345
46	gbb (glass bottom boat)	SID104184479	0.441	0.989	0.444
47	gbb (glass bottom boat)	SID104204261	1.27	0.991	0.741
48	Dhfr (Dihydrofolate reductase)	SID104196438	-1.31	0.158	-9.7
49	Dhfr (Dihydrofolate reductase)	SID104207563	0.64	0.72	0.564
50	Sfp23F (Seminal fluid protein 23F)	SID104218217	-1.4	-0.985	-1.38
51	peb (pebbled)	SID104202414	-3.65 (active)	-2	-4.34
52	peb (pebbled)	SID104205239	-0.276	2.58	-1.06
53	CG5913	SID104195708	0.912	0.39	0.155
54	beat-VII (beaten path VII)	SID104193572	-0.0159	-0.109	-0.0914
55	beat-VII (beaten path VII)	SID104194535	-2.35	0.456	0.515
56	beat-VII (beaten path VII)	SID104202184	-0.886	-1.28	-0.399
57	Cyp6a15Psi (pseudo)	SID104187169	0.0754	-0.0628	0.674
58	Cyp6a15Psi (pseudo)	SID104206860	-0.23	-0.143	-0.803
59	CG4238	SID104180436	0.114	-0.882	0.0311
60	CG15153	SID104182246	-0.597	-1.74	-1.31
61	CG15153	SID104204629	1.1	0.0871	-1
62	CG5435	SID104182652	-1.17	-2.38	0.266
63	TotC (Turandot C)	SID104193241	1.08	0.832	-0.42
64	CG5611	SID104195635	-0.162	-2.82	-0.601
65	JMJD6 (Jumonji domain containing 6)	SID104195579	0.0282 (active)	-5.52	-2.26
66	JMJD6 (Jumonji domain containing 6)	SID104205201	-0.227	0.304	-0.775
67	CG10341	SID104181832	0.365	1.05	-0.364
68	CG34431	SID104208428	0.0665	-0.125	-7.79
